Pooled drug test results. Numbers come from NIAID ChemDB, via PubChem.

All rows: tests on isolated targets; agent: HIV-1; protein: Reverse transcriptase; endpoint: inhibition

Blank or dashed fields: not listed here.

structure,strain or isolate,conditions,mutations,dose,method,result
CCN1c2ccccc2N(C)C(=O)c2cnn(-c3ccccc3)c21,IIIB,,,30 µM,nucleotide incorporation / radiometric,45%
COC(/C=C/[C@@H](C)[C@@H](OC(C)=O)[C@H](C)[C@H](OC(C)=O)[C@H](C)[C@@H](OC(C)=O)[C@@H](C)/C=C/C=C(/C)C(=O)NC1=CC(=O)c2c(c(O)c(C)c3oc(C)cc23)C1=O)OC,,,,300 µM,ELISA,0%
CC(C)Nc1cccnc1N1CCN(C(=O)c2nc3ccccc3[nH]2)CC1,,,,100 µM,nucleotide incorporation,64–78%
C=C1C(=O)O[C@@H]2C[C@@H]3[C@]4(CC[C@]5(C)[C@@H]([C@H](C)CC/C=C(\C)C=O)CC[C@@]35C)C[C@]4(CCC(=O)OC)[C@H]12,,,,200 µg/mL,,71.1%
CC1(C)CCC[C@]2(C)C3=C(C[C@H](C4=CCOC4=O)C3)C(=O)C[C@@H]12,,,,200 µg/mL,RT activity / fluorescence,60%
CCN1c2ncccc2-c2nnsc2-c2cccnc21,,,,1 µM,nucleotide incorporation,91%
Cc1nnc(NC(=O)NCCc2ccccc2)s1,,,,10 µg/mL,nucleotide incorporation,18%
Cc1cccc(C)c1OCC(=O)N[C@@H](Cc1ccccc1)[C@H](O)[C@@H](O)[C@@H]1CCCN1C(=O)COc1c(C)cccc1C,,,,0.0000001 µM,,74%
CS(=O)(=O)S(=O)(=O)N1c2ccccc2C=CC1C#N,,,,50 µM,nucleotide incorporation,≤30%
CCN1c2ccccc2N(C)C(=O)c2cncnc21,IIIB,,,30 µM,nucleotide incorporation / radiometric,26%
CO[C@@H]1[C@H](O)[C@@H](COP(=O)(O)O[C@H]2C[C@H](n3cnc4c(=O)[nH]c(N)nc43)O[C@@H]2CO)O[C@H]1n1cnc2c(=O)[nH]c(N)nc21,,,,100 µM,RT activity,6%
COc1cc(Cc2nccc3cc(OC)c(OC)cc23)c(C(C)=O)cc1OC,,,,100 µM,nucleotide incorporation,97%
S=C(NCCc1ccccn1)Nc1ccncn1,,,,330 µM,,100%
COc1ccc(-c2coc3cc4c(c(OC)c3c2=O)OCO4)cc1OC,,,,200 µg/mL,nucleotide incorporation / radiometric,0%
COC(=O)c1cc(O)c(O)c(O)c1,,,,25 µM,ELISA,33.4%
COC1=CC(=O)C(C[C@]2(C)[C@@H](C)CC[C@]3(C)C(C)=CCC[C@@H]23)=C(O)C1=O,,,,50 µg/mL,,94%
CCN1c2ncccc2-c2cscc2-c2cccnc21,,,,1 µM,nucleotide incorporation,90%
CCN1c2ncccc2C(=O)Nc2c(COc3ccccc3)cc(=O)[nH]c21,WT,,,33 µM,,1%
COC(=O)/C(C)=C\C=C\[C@H](C)[C@@H]1OCO[C@@H]([C@@H](C)[C@H](OC(C)=O)[C@H](C)[C@H](/C=C/O[C@@]2(C)Oc3c(C)c(O)c4c(c3C2=O)C(=O)C=C(N)C4=O)OC)[C@@H]1C,,,,300 µM,ELISA,<20%
CCOc1ccc2nc(NC(=O)NCCc3ccccc3)sc2c1,,,,0.1 µg/mL,nucleotide incorporation,1%
CCC(C)(C)c1cc2c(=O)cc(C(=O)OC)[nH]c2c2c(=O)cc(C(=O)OC)[nH]c12,,,,100 µM,nucleotide incorporation,40%
CC(C)Nc1cccnc1N1CCN(C(=O)c2cc3cc(OCC(=O)O)ccc3[nH]2)CC1,,,,100 µM,nucleotide incorporation,78–95%
C=C1OC(=O)CC[C@]23C[C@]24CC[C@]2(C)[C@@H]([C@H](C)CCC=C(C)C)CC[C@@]2(C)[C@@H]4CC[C@@H]13,,,,200 µg/mL,,2.6%
CCN1c2ncccc2C(=O)Nc2c(COCc3ccccc3)cc(-c3cccc(OC)c3)nc21,,,RT-Y181C,12 µM,,1%
O=C(NCCc1ccccc1)Nc1nc2ccccc2s1,,,,10 µg/mL,nucleotide incorporation,40%
CC(C)(C)c1ccc(CSc2nc(N)cc(Cc3ccccc3)n2)cc1,,,,100 µM,ELISA,0%
C/C1=C\C=C\C2(C)C=C(CO[C@H]3O[C@H](CO)[C@H](O)[C@H](O)[C@H]3O)C(C)CC23OC([O-])C(C3=O)C(O)/C=C/C2(C)C=C(C=O)C(C)CC23OC([O-])C(C3=O)C(O)/C(C)=C/C=C/C2C=C(CO[C@H]3O[C@H](CO)[C@H](O)[C@H](O)[C@H]3O)C(C)CC23OC([O-])C(C3=O)C(O)/C=C/C2(C)C=C(C=O)C(C)CC23OC([O-])C(C3=O)C1O,IIIB,,,0.032 µg/mL,RT activity,46.9%
CCOc1cc(-c2nccc3cc(OC)c(OC)cc23)cc(OCC)c1OCC,,4 d,,1 µM,RT activity,13.4%
S=C(NCCc1ccccn1)Nc1ncccn1,,,,3.3 µM,,6%
COc1cc(NC(C)CCCNCc2cc(Nc3ccnc4cc(Cl)ccc34)cc(CN3CCCC3)c2O)c2ncccc2c1,,,,100 µM,nucleotide incorporation,45%
CCOC(=O)N1c2ccccc2C=CC1C(N)=O,,,,50 µM,nucleotide incorporation,≤30%
Clc1cc(Cc2ccccc2)nc(SCCc2ccccc2)n1,,,,100 µM,ELISA,0%
CCOC(=O)C(=O)Nc1nccc2ccccc12,,,,100 µM,nucleotide incorporation,28%
NC(=O)c1cc2c([nH]c3ccccc32)c(-c2ccc(CO)o2)n1,,,,65.36 µM,ELISA,26.57%
Nc1nc2c(ncn2[C@@H]2O[C@H](COCO[C@@H]3[C@H](O)[C@@H](CO)O[C@H]3n3cnc4c(=O)[nH]c(N)nc43)[C@@H](O)[C@H]2O)c(=O)[nH]1,,,,100 µM,RT activity,10%
O=C(O)/C=C\C(=O)O.O=C(c1ccccc1)N1CCN(C(=O)c2ccc(Nc3ccnc4cc(C(F)(F)F)ccc34)cc2)CC1,,,,100 µM,nucleotide incorporation,36%
CCN1c2ncccc2C(=O)Nc2c(CO)cc(=O)[nH]c21,,,RT-Y181C,25 µM,,1%
CC(C)Nc1cccnc1N(C)N1CCN(C(=O)c2cc3ccccc3[nH]2)CC1,,,,100 µM,nucleotide incorporation,85–97%
N#CC1C=Cc2ccccc2N1C(=O)Oc1ccc(Cl)cc1,,,,50 µM,nucleotide incorporation,47%
Nc1ncnc2c1ncn2[C@@H]1O[C@H](CO)[C@@H](OP(O)(=S)OC[C@H]2O[C@@H](n3cnc4c(=O)[nH]c(NCc5cccc6ccccc56)nc43)[C@H](O)[C@@H]2O)[C@H]1F,,,,100 µM,RT activity,7%
N#CC1C=Cc2ccccc2N1C(=O)CCl,,,,50 µM,nucleotide incorporation,≤30%
CC(=O)O[C@H]1[C@H](C)[C@@H]([C@H](C)[C@@H](O)[C@@H](C)/C=C/C=C(/C)C(=O)NC2=CC(=O)c3c(c(O)c(C)c4oc(C)cc34)C2=O)OC(CC=O)[C@H]1C,,,,300 µM,ELISA,0%
O=C(NCCc1ccccc1)Nc1nc2c(Cl)cccc2s1,,,,0.1 µg/mL,nucleotide incorporation,9%
COc1cc(O)c2c(=O)cc(-c3cc(O)c(OC)c(OC)c3)oc2c1,,,,200 µg/mL,,5.9%
CCCCOC(=O)N1c2ccc([N+](=O)[O-])cc2C=CC1C#N,,,,50 µM,nucleotide incorporation,≤30%
CC1=CCC[C@H]2[C@](C)(CC3=C(O)C(=O)C(=O)C=C3O)[C@@H](C)CC[C@]12C,,,,50 µg/mL,,41%
Fc1cccc(Cl)c1CCNC(=S)Nc1nccs1,,,,1 µg/mL,nucleotide incorporation,77%
Clc1cc(Cc2ccccc2)nc(SCCCc2ccccc2)n1,,,,100 µM,ELISA,0%
Nc1ncnc2c1ncn2[C@@H](C=O)O[C@@H](C=O)COP(=O)(O)OP(=O)(O)OP(=O)(O)O,,,,10 µM,absorbance,40%
COc1cc(O)c2c(c1)OC(c1ccc(Oc3cc(-c4cc(=O)c5c(O)cc(O)cc5o4)ccc3O)cc1)CC2=O,,,,200 µg/mL,nucleotide incorporation / radiometric,93.4%
CCN1c2ncccc2C(=O)Nc2c(Cc3ccccc3)cc(=O)[nH]c21,,,RT-Y181C,42 µM,,1%
CSc1ncc(C(N)=O)c(Nc2ccc3cn[nH]c3c2)n1,,,,0.1 µg/mL,ELISA,48%
CC(C)=CCc1c(O[C@@H]2O[C@H](CO)[C@@H](O)[C@H](O)[C@H]2O)cc2oc(-c3ccc(O)c(O)c3)c(O)c(=O)c2c1O,,,,200 µg/mL,nucleotide incorporation / radiometric,34%
CC(C)(C)c1ccc(CSc2nc(Cl)cc(Cc3ccccc3)n2)cc1,,,,100 µM,ELISA,0%

For reference, 7 entries again:

COc1cc(NC(C)CCCNCc2cc(Nc3ccnc4cc(Cl)ccc34)cc(CN3CCCC3)c2O)c2ncccc2c1 ; dose: 100 µM ; method: nucleotide incorporation ; result: 45%
CC(C)(C)c1ccc(CSc2nc(Cl)cc(Cc3ccccc3)n2)cc1 ; dose: 100 µM ; method: ELISA ; result: 0%
CC(C)(C)c1ccc(CSc2nc(N)cc(Cc3ccccc3)n2)cc1 ; dose: 100 µM ; method: ELISA ; result: 0%
COC(/C=C/[C@@H](C)[C@@H](OC(C)=O)[C@H](C)[C@H](OC(C)=O)[C@H](C)[C@@H](OC(C)=O)[C@@H](C)/C=C/C=C(/C)C(=O)NC1=CC(=O)c2c(c(O)c(C)c3oc(C)cc23)C1=O)OC ; dose: 300 µM ; method: ELISA ; result: 0%
Cc1nnc(NC(=O)NCCc2ccccc2)s1 ; dose: 10 µg/mL ; method: nucleotide incorporation ; result: 18%
CC(C)Nc1cccnc1N1CCN(C(=O)c2nc3ccccc3[nH]2)CC1 ; dose: 100 µM ; method: nucleotide incorporation ; result: 64–78%
NC(=O)c1cc2c([nH]c3ccccc32)c(-c2ccc(CO)o2)n1 ; dose: 65.36 µM ; method: ELISA ; result: 26.57%

Conditions beyond the fields shown may differ between rows. Inhibition is in % at the dose shown (toxicity tests: loss of growth or viability). a–b is a range or a potency band.